Results: ChEMBL document CHEMBL4495565, “Cytopathic SARS-Cov2 screening on VERO-E6 cells in a large repurposing effort” (2020)

System: SARS-CoV-2
Assay: Antiviral activity determined as inhibition of SARS-CoV-2 induced cytotoxicity of VERO-6 cells at 10 uM after 48 hours exposure to 0.01 MOI SARS CoV-2 virus by high content imaging
Settings: Chlorocebus sabaeus, Vero C1008

CCSC(=N)N
inhibition: 0.22%
